Results of unrelated studies side by side (data: NIAID ChemDB).

Shared fields: tests in culture; organism: Candida tropicalis; measure: MIC50

Neighbouring rows are from separate reports. MIC50, MIC90 and the like: level of inhibition, or share of isolates inhibited. An empty or dashed field is not shown.

compound | setting | read by | strain or isolate | value
CC[C@@H]([C@H](C)O)n1ncn(-c2ccc(N3CCN(c4ccc(OC[C@@H]5CO[C@@](Cn6cncn6)(c6ccc(F)cc6F)C5)cc4)CC3)cc2)c1=O | - | - | 15 strains | 0.03 µg/mL
CCC(C)CC(C)CCCCCCCCC(=O)N[C@H]1C[C@@H](O)[C@H](NCCN)NC(=O)[C@@H]2[C@@H](O)CCN2C(=O)[C@H]([C@H](O)CCN)NC(=O)[C@H]([C@H](O)[C@@H](O)c2ccc(O)cc2)NC(=O)[C@@H]2C[C@@H](O)CN2C(=O)[C@H]([C@@H](C)O)NC1=O | - | broth dilution | - | 0.25 µg/mL
COc1cc(C2=C(c3ccc(F)cc3F)COC2=O)ccc1OCC(O)(Cn1cncn1)c1ccc(F)cc1F | - | broth dilution | ATCC 750 | 8 µg/mL
Clc1ccc(C(Cn2ccnc2)OCc2csc3c(Cl)cccc23)c(Cl)c1 | 24 h | visual reading | 65 isolates | 1 µg/mL
C[C@@H](c1ncncc1F)[C@](O)(Cn1cncn1)c1ccc(F)cc1F | - | broth dilution | - | 0.03 µg/mL
Cc1ccc(-c2c3c(N)c4c(nc3nc3c2c(C)nn3-c2ccccc2)CCCC4)cc1 | - | broth dilution / absorbance | CCC 131 | 15.6 µg/mL
CCCCCOc1ccc(-c2cc(-c3ccc(C(=O)N[C@H]4C[C@@H](O)[C@@H](O)NC(=O)[C@@H]5[C@@H](O)[C@@H](C)CN5C(=O)[C@H]([C@H](O)CC(N)=O)NC(=O)[C@H]([C@H](O)[C@@H](O)c5ccc(O)c(OS(=O)(=O)O)c5)NC(=O)[C@@H]5C[C@@H](O)CN5C(=O)[C@H]([C@@H](C)O)NC4=O)cc3)no2)cc1 | - | broth dilution | - | 0.016 µg/mL
C/C=C/[C@@H]1OC(=O)C=C[C@@H]1O | - | - | R2 (polyene-resistant) | 400 µg/mL
CCC(C)CC(C)CCCCCCCCC(=O)N[C@H]1C[C@@H](O)[C@H](NCCN)NC(=O)[C@@H]2[C@@H](O)CCN2C(=O)[C@H]([C@H](O)CCN)NC(=O)[C@H]([C@H](O)[C@@H](O)c2ccc(O)cc2)NC(=O)[C@@H]2C[C@@H](O)CN2C(=O)[C@H]([C@@H](C)O)NC1=O | - | - | 20 isolates | 0.5 µg/mL
COc1cc(/C=C2\SC(=S)NC2=O)ccc1OCC(O)(Cn1cncn1)c1ccc(F)cc1F | - | broth dilution | ATCC 750 | 16 µg/mL
Nc1[nH]c(=O)ncc1F | - | - | 11 isolates | 0.5 µg/mL
C[C@@H](c1ncncc1F)[C@](O)(Cn1cncn1)c1ccc(F)cc1F | - | - | 38 isolates | ≤0.06 µg/mL
CCC(C)CC(C)CCCCCCCCC(=O)N[C@H]1C[C@@H](O)[C@H](NCCN)NC(=O)[C@@H]2[C@@H](O)CCN2C(=O)[C@H]([C@H](O)CCN)NC(=O)[C@H]([C@H](O)[C@@H](O)c2ccc(O)cc2)NC(=O)[C@@H]2C[C@@H](O)CN2C(=O)[C@H]([C@@H](C)O)NC1=O | - | - | 10 isolates | 0.2 µg/mL
CCC(C)n1ncn(-c2ccc(N3CCN(c4ccc(OC[C@H]5CO[C@](Cn6cncn6)(c6ccc(Cl)cc6Cl)O5)cc4)CC3)cc2)c1=O | - | broth dilution | - | 1 µg/mL

A second listing of 2 rows from above:

{"compound": "Cc1ccc(-c2c3c(N)c4c(nc3nc3c2c(C)nn3-c2ccccc2)CCCC4)cc1", "read by": "broth dilution / absorbance", "strain or isolate": "CCC 131", "value": "15.6 µg/mL"}
{"compound": "C/C=C/[C@@H]1OC(=O)C=C[C@@H]1O", "strain or isolate": "R2 (polyene-resistant)", "value": "400 µg/mL"}